Source: US8779141B2, “Viral inhibitors” (Gilead Sciences, Inc., priority 2002, dated 2014)

test system: BVDV-1 (strain PE515); assay: Anti-BVDV assay, virus-induced cytopathic effect in MDBK cells (MTS); format: cell-based, Bovine Viral Diarrhea Virus; settings: Table 9; SI: IC50/EC50 (MDBK growth / anti-BVDV)
Procedure: Madin-Darbey Bovine Kidney (MDBK) cells were maintained in Dulbecco's modified Eagle medium (DMEM) supplemented with BVDV-free 5% fetal calf serum (DMEME-FCS) at 37° C. in a humidified, 5% CO2 atmosphere. BVDV-1 (strain PE515) was used to assess the antiviral activity in MDBK cells. Vero cells were maintained in the same way as MDBK cells. Vero cells were infected with Coxsackie B3 virus (strain Nancy).
Ninety-six-well cell culture plates were seeded with MDBK cells in DMEM-FCS so that cells reached 24 hr later confluency. Then medium was removed and serial 5-fold dilutions of the test compounds were added in a total volume of 100 ul, after which the virus inoculum (100 ul) was added to each well. […] Uninfected cells and cells receiving virus without compound were included in each assay plate. After 5 days, medium was removed and 90 μl of DMEM-FCS and 10 ul of MTS/PMS solution (Promega) was added to each well. Following a 2 hr incubation period at 37° C. the optical density of the wells was read at 498 nm in a microplate reader.

Question: With `Fc1cccc(F)c1-c1nc2ccn(Cc3ccccc3)cc-2n1` [GPJN-1, 5-Benzyl-2-(2,6-difluorophenyl)-5H-imidazo[4,5-c]pyridine] as the compound, how does the SI read?
Answer: >345

Question: For `Clc1cccc(Cn2ccc3nc(-c4ccccc4)nc-3c2)c1` [GPJN-8, 5-[(3-Chlorophenyl)methyl]-2-phenyl-5H-imidazo[4,5-c]pyridine], which SI is on record?
Answer: 592

Question: Which SI does the source give for `Brc1cccc(-c2nc3ccn(Cc4ccc(I)cc4)cc-3n2)c1` [GPJN-79, 2-(3-Bromophenyl)-5-[(4-iodophenyl)methyl]-5H-imidazo[4,5-c]pyridine] here?
Answer: >1204

Question: Which SI does the source give for `Brc1ccc(Cn2ccc3nc(-c4ccncc4)nc-3c2)cc1` [GPJN-49, 5-[(4-Bromophenyl)methyl]-2-(4-pyridinyl)-5H-imidazo[4,5-c]pyridine] here?
Answer: 344

Question: How did the SI turn out when `FC(F)(F)c1ccc(Cn2ccc3nc(-c4ccccc4)nc-3c2)cc1` [GPJN-24, 2-Phenyl-5-[[4-(trifluoromethyl)phenyl]methyl]-5H-imidazo[4,5-c]pyridine] was run?
Answer: 519

Question: For `CC(C)CCn1ccc2nc(-c3ccccc3)nc-2c1` [GPJN-38, 5-(3-Methylbutyl)-2-phenyl-5H-imidazo[4,5-c]pyridine], which SI is on record?
Answer: 213

Question: Which SI does the source give for `c1ccc(-c2nc3ccn(Cc4ccccn4)cc-3n2)cc1` [GPJN-34, 2-Phenyl-5-(2-pyridinylmethyl)-5H-imidazo[4,5-c]pyridine] here?
Answer: >116

Question: `N#Cc1ccc(Cn2ccc3nc(-c4ccccc4)nc-3c2)cc1` [GPJN-23, 4-[(2-Phenyl-5H-imidazo[4,5-c]pyridin-5-yl)methyl]-benzonitrile] was tested. Which SI did it give?
Answer: 3230

Question: With `c1ccc(Cn2ccc3nc(-c4ccccc4)nc-3c2)cc1` [GPJN-4, 5-Benzyl-2-phenyl-5H-imidazo[4,5-c]pyridine] as the compound, how does the SI read?
Answer: 1144

Question: How did the SI turn out when `Fc1cccc(F)c1Cn1ccc2nc(-c3ccccc3)nc-2c1` [GPJN-3, 5-[(2,6-Difluorophenyl)methyl]-2-phenyl-5H-imidazo[4,5-c]pyridine] was run?
Answer: 1003

Question: Which SI does the source give for `Brc1ccc(Cn2ccc3nc(-c4ccccc4)nc-3c2)cc1` [GPJN-22, 5-[(4-Bromophenyl)methyl]-2-phenyl-5H-imidazo[4,5-c]pyridine] here?
Answer: 450

Question: For `Fc1ccc(Cn2ccc3nc(-c4c(F)cccc4F)nc-3c2)cc1` [GPJN-39, 2-(2,6-Difluorophenyl)-5-[(4-fluorophenyl)methyl]-5H-imidazo[4,5-c]pyridine], which SI is on record?
Answer: >408

Question: How did the SI turn out when `c1ccc(CCCCn2ccc3nc(-c4ccccc4)nc-3c2)cc1` [GPJN-27, 2-Phenyl-5-(4-phenylbutyl)-5H-imidazo[4,5-c]pyridine] was run?
Answer: >48

Question: With `Clc1cccc(-c2nc3ccn(Cc4ccc(Br)cc4)cc-3n2)c1` [GPJN-55, 5-[(4-Bromophenyl)methyl]-2-(3-chlorophenyl)-5H-imidazo[4,5-c]pyridine] as the compound, how does the SI read?
Answer: >1666

Question: With `Cc1ccc(Cn2ccc3nc(-c4ccccc4)nc-3c2)cc1` [GPJN-15, 5-[(4-Methylphenyl)methyl]-2-phenyl-5H-imidazo[4,5-c]pyridine] as the compound, how does the SI read?
Answer: 3079

Question: How did the SI turn out when `Clc1ccccc1Cn1ccc2nc(-c3ccccc3)nc-2c1` [GPJN-7, 5-[(2-Chlorophenyl)methyl]-2-phenyl-5H-imidazo[4,5-c]pyridine] was run?
Answer: 525

Question: With `c1ccc(-c2nc3ccn(CC4CCCCC4)cc-3n2)cc1` [GPJN-37, 5-(Cyclohexylmethyl)-2-phenyl-5H-imidazo[4,5-c]pyridine] as the compound, how does the SI read?
Answer: 137

Question: With `Clc1ccc(Cn2ccc3nc(-c4cccc(Br)c4)nc-3c2)cc1` [GPJN-80, 2-(3-Bromophenyl)-5-[(4-chlorophenyl)methyl]-5H-imidazo[4,5-c]pyridine] as the compound, how does the SI read?
Answer: >555

Question: `Fc1ccccc1Cn1ccc2nc(-c3ccccc3)nc-2c1` [GPJN-17, 5-[(2-Fluorophenyl)methyl]-2-phenyl-5H-imidazo[4,5-c]pyridine] was tested. Which SI did it give?
Answer: 517

Question: `Ic1ccc(Cn2ccc3nc(-c4ccccc4)nc-3c2)cc1` [GPJN-68, 5-[(4-Iodophenyl)methyl]-2-phenyl-5H-imidazo[4,5-c]pyridine] was tested. Which SI did it give?
Answer: 653

same assay, conditions: Table 10; SI: MTC/EC50

Question: With `Clc1cn(Cc2ccc(Br)cc2)cc2nc(-c3ccccc3)nc1-2` [GPJN-103, 5-[(4-Bromophenyl)methyl]-7-chloro-2-phenyl-5H-imidazo[4,5-c]pyridine] as the compound, how does the SI read?
Answer: 328
